Values of other authors in publication PMC7076857 (Toxins, 2020).
Read-outs that look alike come from different tables or passages of the source.

Assays:
PP1 [1] = conditions: read-out: IC50 in PP1 assay; ref 7 (Matthiensen et al.); cited from earlier work
PP1 [2] = conditions: read-out: IC50 in PP1 assay; 2 and 3 both had the same IC50 value; ref 6 (Park et al.); cited from earlier work

Substance: [D-Leu^1]MC-LR
- IC50 (PP1 [1]): 4.4 nM
- IC50 (PP1 [2]): 0.3 nM
